A mixed list of measured activities; the numbers were collected in NIAID ChemDB.

Common to all: cytotoxicity tests; cells: HSB-2; measure: CC50

Conditions beyond the fields shown may differ between rows. CCn is the concentration with n% toxicity to the cells.

| structure | value |
|---|---|
| CCCCCCCC/C=C\CCCCCCCOCCCOP(=O)(O)CO[C@H](CO)Cn1ccc(N)nc1=O | >444 µM |
| CC(C)Nc1nc2cc(Cl)c(Cl)cc2n1[C@H]1O[C@@H](CO)[C@H](O)[C@@H]1O | >133 µM |
| CCCCCOc1nc(N)nc2c1ncn2/C=C1/C[C@@H]1CO | >96 µM |
| Cc1cn([C@@H]2S[C@@H](CO)[C@@H](O)[C@H]2O)c(=O)[nH]c1=O | >100 µg/mL |
| Nc1nc2c(ncn2/C=C2\CC2(CO)CO)c(=O)[nH]1 | >190 µM |
| CCCCCCCC/C=C\CCCCCCCOCCOP1(=O)CO[C@@H](Cn2ccc(N)nc2=O)CO1 | >1 µM |
| C#CCNc1nc(N)nc2c1ncn2/C=C1/C[C@@H]1CO | 162 µM |
| NC(=O)c1c(Cl)c(-c2cccnc2)n2c1CCCC2 | 144 µM |
| CCCCCSc1nc(N)nc2c1ncn2/C=C1/C[C@@H]1CO | >156 µM |
| OC[C@H]1O[C@@H](n2c(Br)nc3cc(Cl)c(Cl)cc32)[C@H](O)[C@@H]1O | >125 µM |
| Nc1ccn(C[C@@H](CO)OCP(=O)(O)O)c(=O)n1 | >1 µM |
| O=C(O)P(=O)(O)O | 1500 µM |
| CCCCCCCCCCCCCCCCCCOC[C@H](COP(=O)(O)CO[C@H](CO)Cn1ccc(N)nc1=O)OCc1ccccc1 | >1 µM |
| Nc1nc(NC2CC2)c2ncn(/C=C3/C[C@@H]3CO)c2n1 | 25.6 µM |
| O=c1[nH]c(=O)n([C@@H]2O[C@H](CO)[C@@H](O)[C@@H]2O)cc1/C=C/Br | 100 µM |
| CCCCCCCCCCCCCCCCOP1(=O)CO[C@@H](Cn2ccc(N)nc2=O)CO1 | >1 µM |
| Cc1cn([C@H]2C[C@H](N=[N+]=[N-])[C@@H](CO)O2)c(=O)[nH]c1=O | >200 µM |
| CCCCCCCCCCCCCCCCCOC[C@H](COP1(=O)CO[C@@H](Cn2ccc(N)nc2=O)CO1)OCc1ccccc1 | >1 µM |

2 of the rows above, restated:

structure	value
NC(=O)c1c(Cl)c(-c2cccnc2)n2c1CCCC2	144 µM
O=c1[nH]c(=O)n([C@@H]2O[C@H](CO)[C@@H](O)[C@@H]2O)cc1/C=C/Br	100 µM